System: SVV
Assay: Co-immunoprecipitation of SVV with Fc chimera proteins, Western blot
Details: washes with NaCl from 125 mM up to 2M

B1: ANTXR1-Fc (protein)
chain: EDGGPACYGGFDLYFILDKSGSVLHHWNEIYYFVEQLAHKFISPQLRMSFIVFSTRGTTLMKLTEDREQIRQGLEELQKVLPGGDTYMHEGFERASEQIYYENRQGYRTASVIIALTDGELHEDLFFYSEREANRSRDLGAIVYCVGVKDFNETQLARIADSKDHVFPVNDGFQALQGIIHSILKKSCIEILAAEPSTICAGESFQVVVRGNGFRHARNVDRVLCSFKINDSVTLNEKPFSVEDTYLLCPAPILKEVGMKAALQVSMNDGLSFISSSVIITTTHCSDGS
modifications: left off: a dimerising Fc or GST
intensity of viral protein bands with increasing salt concentration: did not change significantly

Reference: patent US12472218B2, “Seneca valley virus (SVV) cellular receptor targeted oncotherapy” (Memorial Sloan-Kettering Cancer Center, priority 2015, dated 2025)
